# Molecular target: glucan synthase (GS) prepared from Candida albicans MY1055 (Candida albicans, UniProt O13428)
# The chains behind the UniProt entries cited, without tags or fusion partners. Residues count along the entry.
# UniProt O13428, 1-1897: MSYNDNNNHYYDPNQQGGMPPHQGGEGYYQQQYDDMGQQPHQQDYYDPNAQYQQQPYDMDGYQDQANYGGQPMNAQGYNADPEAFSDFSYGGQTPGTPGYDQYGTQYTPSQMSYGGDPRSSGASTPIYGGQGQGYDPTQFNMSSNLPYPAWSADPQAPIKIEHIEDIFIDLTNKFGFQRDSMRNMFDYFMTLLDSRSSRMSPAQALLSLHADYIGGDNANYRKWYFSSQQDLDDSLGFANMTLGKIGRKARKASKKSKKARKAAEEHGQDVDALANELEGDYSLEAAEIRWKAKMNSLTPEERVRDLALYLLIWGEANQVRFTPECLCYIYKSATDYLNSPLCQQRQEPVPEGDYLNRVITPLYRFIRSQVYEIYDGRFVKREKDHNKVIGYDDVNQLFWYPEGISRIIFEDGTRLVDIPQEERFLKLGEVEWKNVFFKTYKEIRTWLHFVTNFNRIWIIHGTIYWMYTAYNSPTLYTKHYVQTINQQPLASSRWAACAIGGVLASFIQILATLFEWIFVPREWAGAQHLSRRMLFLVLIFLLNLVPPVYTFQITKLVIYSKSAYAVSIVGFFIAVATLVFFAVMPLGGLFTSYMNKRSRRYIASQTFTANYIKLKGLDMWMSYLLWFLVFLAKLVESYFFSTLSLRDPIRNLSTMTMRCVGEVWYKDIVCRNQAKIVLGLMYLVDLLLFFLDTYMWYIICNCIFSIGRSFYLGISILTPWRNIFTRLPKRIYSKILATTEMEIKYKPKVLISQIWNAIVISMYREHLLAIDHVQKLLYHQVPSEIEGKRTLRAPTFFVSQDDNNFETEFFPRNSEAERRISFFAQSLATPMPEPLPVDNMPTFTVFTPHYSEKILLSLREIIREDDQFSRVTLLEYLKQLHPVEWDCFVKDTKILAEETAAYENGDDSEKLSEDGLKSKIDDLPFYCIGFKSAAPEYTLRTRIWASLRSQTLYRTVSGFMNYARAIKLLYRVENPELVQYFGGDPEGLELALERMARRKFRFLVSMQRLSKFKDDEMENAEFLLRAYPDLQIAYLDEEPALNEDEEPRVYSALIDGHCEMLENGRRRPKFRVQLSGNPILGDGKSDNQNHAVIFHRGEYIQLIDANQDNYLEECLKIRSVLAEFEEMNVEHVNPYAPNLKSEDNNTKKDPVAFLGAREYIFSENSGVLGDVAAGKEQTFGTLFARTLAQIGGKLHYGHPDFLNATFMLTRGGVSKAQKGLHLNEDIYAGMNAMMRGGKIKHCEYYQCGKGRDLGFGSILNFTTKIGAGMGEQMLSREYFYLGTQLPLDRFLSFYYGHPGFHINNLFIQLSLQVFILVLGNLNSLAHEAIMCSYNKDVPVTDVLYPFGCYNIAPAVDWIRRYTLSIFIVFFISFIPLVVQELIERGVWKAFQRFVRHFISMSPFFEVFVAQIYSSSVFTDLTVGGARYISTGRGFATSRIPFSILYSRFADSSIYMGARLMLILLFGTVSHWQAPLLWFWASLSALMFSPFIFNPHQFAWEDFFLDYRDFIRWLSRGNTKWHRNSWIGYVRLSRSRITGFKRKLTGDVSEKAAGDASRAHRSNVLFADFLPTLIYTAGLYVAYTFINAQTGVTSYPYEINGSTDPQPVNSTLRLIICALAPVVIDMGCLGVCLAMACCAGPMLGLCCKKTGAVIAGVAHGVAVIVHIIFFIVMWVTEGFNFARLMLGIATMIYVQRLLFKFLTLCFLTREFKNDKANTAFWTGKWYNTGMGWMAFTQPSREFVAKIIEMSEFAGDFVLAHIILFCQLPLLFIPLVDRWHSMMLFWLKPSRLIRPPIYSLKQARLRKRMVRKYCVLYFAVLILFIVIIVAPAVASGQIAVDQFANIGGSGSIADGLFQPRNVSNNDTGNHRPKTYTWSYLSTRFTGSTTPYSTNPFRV
# Assay: Glucan synthase inhibition (polymerization assay, 96-well)
# Type: biochemical
# Settings: GS from C. albicans MY1055; 60 min incubation at 22° C.; tested form: TFA
# Description: The in vitro evaluation of glucan synthase inhibitory activity of compounds was measured in a polymerization assay in 96-well format. Each well contained 100 μL of ^3H-UDPG at 0.5 mM (6000 to 8000 dpm/nmol), 50 mM HEPES pH 7.5 (Sigma), 10% w/v glycerol (Sigma), 1.5 mg/mL bovine serum albumin (Sigma A 9647. Lot 44H0190), 25 mM KF (Fisher), 1 mM EDTA (Gibco ULTRAPURE), 25 μM GTP-γ-S, enzyme sufficient to give 3 to 6 nmoles incorporation during the 60 min incubation at 22° C., and test compound added from wells in 3-fold serial dilutions in 100% DMSO (1 μL/well). The reaction was stopped by the addition of 100 μL of 20% trichloroacetic acid. […] 40 μL/well scintillation fluid (Packard ULTIMA GOLD TM-XR) was added and the sealed plates counted in a WALLAC BETA counter in top-counting mode at an efficiency of approximately 40%. […]
# Routine analysis was performed with glucan synthase (GS) prepared from Candida albicans MY1055 by the following procedure: MY1055 was grown in 10 liters YPD medium (10 g yeast extract, 20 g tryptone, 20 g glucose per liter) with vigorous shaking at 30° C., to early stationary phase. […] Extent of breakage was assessed visually at 40× magnification. […]
smiles,measurement,value
CNC(=O)c1ncnn1[C@@H]1C[C@@]23COC[C@](C)([C@@H]2CC[C@H]2C3=CC(=O)[C@@]3(C)[C@H](C(=O)O)[C@@](C)([C@H](C)C(C)C)CC[C@]23C)[C@H]1OC[C@](C)(NC)C(C)C,Candida Albicans GS IC50,0.018 µg/mL
